What was measured:
Test in all cases: cell-based or functional assay
[1] = target: Caspase 6 (Human) (UniProt P55212)
[2] = target: Elastase (Human) (UniProt P08246)
[3] = target: Tryptase gamma 1 (Human) (UniProt Q9NRR2)

Measured: Compound IC50 (M), protease activity assay

WT MQ1 peptide (prior art)
> 5e-05 M: [1] | [2] | [3]

Reference: patent US20230234994A1, “Vasopressin-2 receptor antagonist peptides and uses thereof” (published 2023)
